Anti-infective test results gathered from many reports (values: NIAID ChemDB through PubChem).

Shared fields: tests in culture; species: Hepatitis B virus; cells: HepG2.117; endpoint: EC50

An empty or dashed field is not shown. Conditions beyond the fields shown may differ between rows. Two numbers with a dash give a range or band. ECn is the concentration giving n% inhibition of infection, replication or growth.

SMILES,method,conditions,result
COc1ccc(Cc2cnc([C@]3(F)CN(C(=O)c4ccc(Br)c(Cl)c4)CCS3(=O)=O)s2)c(OC)c1,PCR,,0.5–5 µM
CC(C)Cc1cnn2c3c(c(=O)n(-c4ccc(-c5nncn5C)cc4)c12)C[C@H](C)N(C(=O)c1ccc(Br)c(Cl)c1)C3,luminescence,,0.05–0.5 µM
O=C(c1ccc(Br)c(F)c1)N1CCc2c(n3nccc3n(-c3ccccc3)c2=O)C1,PCR,3 d,>5 µM
COc1ccc(-n2c(C(=O)NCc3ccc4[nH]ncc4c3)c3n(c2=O)CCN(C(=O)c2ccc(Cl)c(Cl)c2)C3)cc1,PCR,,0.5–5 µM
Cc1cnn2c3c(c(=O)n(-c4ccccc4)c12)CCN(C(=O)c1ccc(Br)c(F)c1)C3,PCR,3 d,0.5–5 µM
CC(C)Oc1ccc(-n2c(C(=O)N[C@@H](C)c3ccccc3)c3n(c2=O)CCN(C(=O)c2ccc(Cl)c(Cl)c2)C3)cc1,PCR,,0.5–5 µM
C[C@@H]1CS(=O)(=O)[C@H](c2cccs2)CN1C(=O)c1ccc(Br)c(Cl)c1,PCR,,0.5–5 µM
CNC(=O)c1ccc(-n2c(=O)c3c(n4ncc(Cc5ccccc5)c24)CN(C(=O)c2ccc(Br)c(C)c2)CC3)cc1,luminescence,,≤0.05 µM
CNC(=O)c1ccc(-n2c(=O)c3c(n4ncc(Nc5ccccc5)c24)CN(C(=O)c2ccc(Cl)c(Cl)c2)CC3)cc1,PCR,3 d,<0.1 µM
N#Cc1cc(C(=O)N2CCS(=O)(=O)[C@](F)(c3ncc(Cc4ccccc4-c4ncccn4)s3)C2)ccc1Br,PCR,,0.5–5 µM
N#Cc1cc(C(=O)N2CCc3c(n4ncc(Cc5ccccc5)c4n(-c4ccc(-c5ncc[nH]5)cc4)c3=O)C2)ccc1Br,PCR,3 d,0.5–5 µM
CC(C)Oc1ccc(-n2c(C(=O)N[C@@H](C)c3ccccc3)c3n(c2=O)CCN(C(=O)c2ccc(Br)c(Cl)c2)C3)cc1,PCR,,0.1–0.5 µM
O=C(Nc1ccc(F)c(Cl)c1)N1CCS(=O)(=O)[C@@H](c2ccccc2)C1,PCR,,>5 µM
C[C@@H]1Cc2c(n3ncc(Cc4ccccc4)c3n(-c3ccc(-c4ncnn4C)cc3)c2=O)CN1C(=O)c1ccc(Br)c(C(F)(F)F)c1,luminescence,,≤0.05 µM
O=C(NCc1ccccc1)c1c2n(c(=O)n1-c1ccccn1)CCN(C(=O)c1ccc(Cl)c(Cl)c1)C2,PCR,,>5 µM
Cc1cnn(-c2ccc(-n3c(=O)c4c(n5ncc(CC(C)C)c35)CN(C(=O)c3ccc(Br)c(C(F)(F)F)c3)[C@H](C)C4)cc2)c1,luminescence,,≤0.05 µM
N#Cc1cc(C(=O)N2CCc3c(n4ncc(Cc5ccccc5)c4n(-c4ccc(-n5cccn5)cc4)c3=O)C2)ccc1Br,PCR,3 d,>5 µM
C[C@@H]1Cc2c(n3ncc(Cc4ccccc4)c3n(-c3ccc(-c4nncn4C)cc3)c2=O)CN1C(=O)c1ccc(Br)c(C(F)(F)F)c1,luminescence,,≤0.05 µM
O=C(NCc1ccccc1-c1ccncn1)c1c2n(c(=O)n1-c1ccc(OC3CC3)cc1)CCN(C(=O)c1ccc(Br)c(Cl)c1)C2,PCR,,<0.1 µM
Cn1cnnc1-c1ccc(-n2c(=O)c3c(n4ncc(Cc5ccccc5)c24)CN(C(=O)c2ccc(Br)c(Cl)c2)CC3)cc1,luminescence,,≤0.05 µM
C[C@]1(c2ncc(Cc3ccccc3)s2)CN(C(=O)c2ccc(Br)c(Cl)c2)CCS1(=O)=O,PCR,,0.1–0.5 µM
CNc1n[nH]c2cc(-n3c(=O)c4c(n5ncc(CC(C)C)c35)CN(C(=O)c3ccc(Br)c(C(F)(F)F)c3)[C@H](C)C4)ccc12,luminescence,,≤0.05 µM
N#Cc1cc(C(=O)N2CCc3c(n4ncc(Cc5ccccc5)c4n(-c4ccc(C(=O)NC5CC5)cc4)c3=O)C2)ccc1Br,PCR,3 d,>5 µM
COc1ccc(-n2c(C(=O)NCc3ccccc3)c3n(c2=O)CCN(C(=O)c2ccc(Cl)c(Cl)c2)C3)cc1C,PCR,,0.5–5 µM
C[C@@H]1CS(=O)(=O)[C@@H](c2cccs2)CN1C(=O)c1ccc(Br)c(Cl)c1,PCR,,0.5–5 µM
CNC(=O)c1ccc(-n2c(=O)c3c(n4ncc([C@H](C)c5ccccc5)c24)CN(C(=O)c2ccc(Br)c(C#N)c2)CC3)cc1,PCR,3 d,<0.1 µM

For reference, 2 entries again:

SMILES,method,conditions,result
CNC(=O)c1ccc(-n2c(=O)c3c(n4ncc([C@H](C)c5ccccc5)c24)CN(C(=O)c2ccc(Br)c(C#N)c2)CC3)cc1,PCR,3 d,<0.1 µM
COc1ccc(Cc2cnc([C@]3(F)CN(C(=O)c4ccc(Br)c(Cl)c4)CCS3(=O)=O)s2)c(OC)c1,PCR,,0.5–5 µM